Results of unrelated studies side by side (data: NIAID ChemDB).

All rows: tests in culture; agent: Human cytomegalovirus; read by: plaque count; endpoint: EC50

Conditions beyond the fields shown may differ between rows.

compound	strain	cell line	result
CC#Cc1cn([C@@H]2O[C@H](COP(=O)(NCCC)Oc3ccccc3)[C@@H](O)[C@@H]2O)c(=O)[nH]c1=O	AD169	MRC-5	>100 µM
O=C1NC(=O)c2c1c1c([nH]c3cccc(F)c31)c1[nH]c3cccc(F)c3c21		VERO	>10 µM
Nc1nccc2c1ncn2C(C=O)OC(C=O)CO	AD-169 (20 PFU)	HEL	1.25 µg/mL
CCOC(=O)C1=Cc2cc(OC)c(OC)c(OC)c2[C@@H](c2ccc3c(c2)OCO3)[C@@H]1C(=O)OCC			1.4 µM
COc1nc(N)nc2c1ncn2/C=C1/C[C@@H]1CO	AD169	HFF	2 µM
Nc1ccn(OC(/C=C/P(=O)(O)O)CO)c(=O)n1	AD169	MRC-5	>300 µM
NC(=O)c1cn(COCCO)c2ncnc(N)c12		HFF	>320 µM
O=C1NC(=O)c2c1c1c3cc(O)ccc3[nH]c1c1[nH]c3ccc(O)cc3c21		VERO	>10 µM
Nc1ncnc2c1ccn2[C@@H]1O[C@H](CO)[C@@H](O)[C@@H]1O		HFF	155 µM
CC#Cc1cn([C@@H]2O[C@H](COP(=O)(O)Oc3cccc(Cl)c3)[C@@H](O)[C@@H]2O)c(=O)[nH]c1=O	AD169	MRC-5	>10 µM
Nc1ncnc2c1ccn2[C@H]1CC[C@@H](CO)O1		HFF	>100 µM
COC(=O)[C@H](C)NP(=O)(OCC1C/C1=C/n1cnc2c(N)ncnc21)Oc1ccccc1	TOWNE	HFF	0.14 µM
NC(=O)c1cn([C@@H]2O[C@H](CO)[C@@H](O)[C@H]2O)c2ncnc(N)c12		HFF	0.03 µM
Nc1nc2c(ncn2COC(CO)CO)c(=O)[nH]1	Ganciclovir-resistant	MRC-5	191 µM
CCOC(=O)C1=Cc2cc3c(cc2[C@@H](c2ccc4c(c2)OCO4)[C@@H]1C(=O)OCC)OCO3			25 µM
C[C@H](O)C1=C[C@@H](n2cnc3c(N)ncnc32)[C@H](O)[C@@H]1O	DAVIS (20 PFU)	HEL	8.8 µg/mL
O=C1OCc2cc3cc4c(cc3c(-c3ccc5c(c3)OCO5)c21)OCO4			1.2 µM
O=C1NC(=O)c2c1c1c3ccccc3[nH]c1c1[nH]c3ccccc3c21		VERO	0.2 µM
Nc1nccc2c1ncn2[C@@H]1C=C(CO)[C@@H](O)[C@H]1O	AD-169 (20 PFU)	HEL	0.15 µg/mL
Nc1nc2c(ncn2COC(CO)CO)c(=O)[nH]1	AD169	MRC-5	1.2 µM
Nc1ccn(C[C@@H](CO)OCP(=O)(O)O)c(=O)n1	DAVIS	HEL	0.1 µg/mL
Nc1ncnc2c1ncn2/C=C1/C[C@H]1CO	AD169	HFF	6.9 µM
O=C(O)c1cc(O)c2c(c1)C(=O)c1cccc(O)c1C2=O	AD169	MRC-5	5.6 µM
COC(=O)[C@H](C)NP(=O)(OC[C@H]1C/C1=C/n1cnc2c(=O)[nH]c(N)nc21)Oc1ccccc1	AD169	HFF	25 µM
C[C@H]1[C@@H](OC(=O)CCC(=O)O)O[C@@H]2O[C@@]3(C)CC[C@H]4[C@H](C)CC[C@@H]1[C@@]24OO3	P	MRC-5	1.26 µM
Nc1nc(NC2CC2)c2ncn(C=C3CC3CO)c2n1	TOWNE	HFF	0.4 µM
O=C1c2ccc(O)c(O)c2C(=O)c2c(O)ccc(O)c21	Ganciclovir-resistant	MRC-5	1.5 µM
COc1ccc2c(c1)[nH]c1c3[nH]c4cc(OC)ccc4c3c3c(c21)C(=O)NC3=O		VERO	0.5 µM
Nc1ncnc2c1ncn2OCC/C=C/P(=O)(O)O	AD169	MRC-5	>300 µM
CC#Cc1cn([C@@H]2O[C@H](COP(=O)(O)Oc3c(C)cccc3C)[C@@H](O)[C@@H]2O)c(=O)[nH]c1=O	AD169	MRC-5	>10 µM
Nc1nc(Cl)c2ncn(/C=C3/C[C@@H]3CO)c2n1	AD169	HFF	2.9 µM
Cc1cccc2c1[nH]c1c3[nH]c4c(C)cccc4c3c3c(c21)C(=O)NC3=O		VERO	>10 µM
Nc1nc2c(ncn2COC(CO)CO)c(=O)[nH]1	DAVIS	HEL	0.7 µg/mL
O=C1NC(=O)c2c1c1c3cc(Br)ccc3[nH]c1c1[nH]c3ccc(Br)cc3c21		VERO	0.06 µM
COc1nc(N)nc2c1ncn2C=C1CC1CO	AD169	HFF	5.3 µM
Nc1ncnc2c1c(Br)cn2[C@H]1CC[C@@H](CO)O1		HFF	6.2 µM
O=C1NC(=O)c2c1c1c3cc(Cl)ccc3[nH]c1c1[nH]c3ccc(Cl)cc3c21		VERO	0.16 µM
NC(=O)c1cn([C@H]2C=C[C@@H](CO)O2)c2ncnc(N)c12		HFF	>100 µM
Nc1nc2c(ncn2CC/C=C\P(=O)(O)O)c(=O)[nH]1	AD169	MRC-5	>300 µM
O=C(O)C[C@H](NCCN[C@@H](CC(=O)O)C(=O)O)C(=O)O	Ganciclovir- and HPMPC-resistant	HEL	11.7 µg/mL
COC(=O)C(C)NP(=O)(OC[C@@H]1C/C1=C/n1cnc2c(N)nc(N)nc21)Oc1ccccc1	AD169	HFF	>42 µM
Nc1nc2c(ncn2[C@H]2C=C[C@@H](CO)CC2)c(=O)[nH]1	DAVIS	HEL	3.97 µg/mL
Nc1nc2c(ncn2OC(/C=C/P(=O)(O)O)CO)c(=O)[nH]1	AD169	MRC-5	>300 µM
CC#Cc1cn([C@@H]2O[C@H](COP(=O)(O)Oc3ccc(Cl)cc3)[C@@H](O)[C@@H]2O)c(=O)[nH]c1=O	AD169	MRC-5	>10 µM
Nc1nc2c(ncn2[C@@H]2C=C[C@H](CO)CC2)c(=O)[nH]1			1–10 µM
O=C(NCCc1c[nH]c2ccccc12)C1=Cc2ccncc2CC1	AD169	MRC-5	1 µM
Nc1nccc2c1ncn2[C@@H]1C[C@H](CO)[C@@H](O)[C@H]1O	DAVIS (20 PFU)	HEL	0.95 µg/mL

ECn is the concentration giving n% inhibition of infection, replication or growth. a–b is a range or a potency band. Blank or dashed fields: not listed here.